Results of unrelated studies side by side (data: NIAID ChemDB).

Shared fields: tests in culture; organism: Mycobacterium avium; read-out: MIC

An empty or dashed field is not shown. Lines come from different laboratories, so protocols vary. a–b is a range or a potency band.

compound	read by	cell line	conditions	mutations	strain or isolate	result
COc1ccc(/C=C/C2=NN(C(=N)N)C(c3ccc(OC)cc3)C2)cc1	resazurin	-	-	-	-	1.78 µM
CC1(C)CC[C@]2(C(=O)O)CC[C@]3(C)C(CC[C@@H]4[C@@]5(C)C[C@H](O)CC(C)(C)[C@@H]5CC[C@]43C)[C@@H]2C1	resazurin	-	-	-	-	100 µg/mL
Cc1ccc(-n2c(=O)oc3cc(Cl)ccc3c2=O)cc1	-	-	-	-	CNCTC MY330/88	8 µM
O=C(Nc1cccc(F)c1)c1cc(Cl)ccc1O	broth dilution	-	14 d	-	330/88	31 µM
CCCCOc1cccc(NC(=O)OCCN2CCOCC2)c1	-	-	-	-	MY330/88	250 µM
C[C@@H]([C@H](NC(=O)[C@H](Cc1ccc2ccccc2c1)NC(=O)N[C@@H](Cc1c[nH]c2ccccc12)C(=O)NCC(C)(C)C)C(=O)NC[C@H]1C[C@@H](O)[C@H](n2ccc(=O)[nH]c2=O)O1)N(C)C(=O)CN	resazurin / fluorescence	-	-	-	CA6	0.8 µM
O=c1oc2ccc(Cl)cc2c(=O)n1-c1cccc(F)c1	-	-	-	-	CNCTC MY330/88	16 µM
CCc1nc2ccc(Cl)cn2c1C(=O)NCc1ccc(N2CCSCC2)c(F)c1	resazurin	-	-	-	A5	>1 µg/mL
Cc1ccc(CS/C(N)=N/N=C/c2ccccc2)cc1	broth dilution	-	21 d	-	ATCC 25291	32 µM
NC(=O)c1c(NC(=O)c2c(F)c(F)c(F)c(F)c2F)sc2c1CCOC2	turbidity	-	-	-	-	>200 µM
Cc1ccn2c(C(=O)NCc3ccc(N4CCN(c5ccc(C(F)(F)F)cc5)CC4)c(F)c3)c(C)nc2c1	resazurin	-	-	Gentamicin-resistant	104	<0.0078 µg/mL
N/C(=N\N=C\c1ccccc1)SCc1ccccc1	broth dilution	-	14 d	-	ATCC 25291	32 µM
Cc1ccn2c(C(=O)NCc3ccc(N4CCC(c5ccc(OC(F)(F)F)cc5)CC4)cc3)c(C)nc2c1	resazurin	-	-	-	101	<2 µM
N=C(N)N1N=C(/C=C/c2ccccc2)CC1c1ccccc1	resazurin	-	-	-	-	2.15 µM
O=c1oc2ccc(Cl)cc2c(=O)n1-c1ccc(Br)cc1	-	-	-	-	CNCTC MY330/88	8 µM
CCN1CCc2c(sc(NC(=O)c3c(F)c(F)c(F)c(F)c3F)c2C(=O)NC)C1	resazurin / turbidity	-	-	-	2285 (S)	>100 µM
N/C(=N\N=C\c1ccccc1)SCc1ccc(Br)cc1	broth dilution	-	21 d	-	ATCC 25291	16 µM
CCCCCOc1ccc(NC(=O)OCCN(C)C)cc1	-	-	-	-	MY330/88	32 µM
Cc1ccn2c(C(=O)NCc3cccc(OC(F)(F)F)c3)c(C)nc2c1	resazurin	-	-	-	2151	2–10 µM
O=C(Oc1cc(Cl)ccc1C(=O)Nc1ccc(Cl)cc1)c1ccccc1	broth dilution	-	21 d	-	330/88	4 µM
CS(C)=O	resazurin	-	-	-	2151	>1 µg/mL
O=C(Oc1cc(Cl)ccc1C(=O)Nc1ccc(Br)cc1)c1ccccc1	broth dilution	-	21 d	-	330/88	4 µM
Cc1ccc2c(=O)n(-c3cccc(Cl)c3)c(=O)oc2c1	-	-	-	-	CNCTC MY330/88	16 µM
N/C(=N\N=C\c1cc(Br)ccc1O)SCc1ccc(F)cc1	broth dilution	-	14 d	-	ATCC 25291	62.5 µM
O=c1oc2ccc(Cl)cc2c(=O)n1-c1ccc(F)cc1	-	-	-	-	CNCTC MY330/88	16 µM
CCCOc1ccc(NC(=O)OCCN2CCOCC2)cc1	-	-	-	-	MY330/88	500 µM
O=C(Nc1cncc(Cl)n1)c1ccccc1O	resazurin	-	-	-	-	>100 µg/mL
Cc1ccn2c(C(=O)NCc3ccc(Oc4cccc(C(F)(F)F)c4)cc3)c(C)nc2c1	resazurin	-	-	-	101	<2 µM
Cc1cc(-c2cc3c(cc2F)c(=O)c(C(=O)O)cn3C2CC2)cc(C)n1	agar	Human monocyte-derived macrophages	-	-	-	1 µg/mL
CCCCCCCOc1ccc(NC(=O)OCCN2CCCCCC2)cc1	-	-	-	-	MY330/88	8 µM
O=C(Oc1cc(Cl)ccc1C(=O)Nc1ccc(C(F)(F)F)cc1)c1ccccc1	broth dilution	-	14 d	-	330/88	2 µM
Cc1ccn2c(C(=O)NCc3ccc(N4CCC5(CC4)OCC(C)CO5)c(F)c3)c(C)nc2c1	resazurin	-	-	-	101	2–10 µM
N/C(=N\N=C\c1ccccc1O)SCc1cccc(Cl)c1	broth dilution	-	14 d	-	ATCC 25291	62.5 µM
Cc1cn2c(C(=O)NCc3ccc(N4CCSCC4)c(F)c3)c(C)nc2s1	resazurin	-	-	-	2151	<2 µM
NCC[C@H](O)C(=O)N[C@@H]1C[C@H](N)[C@@H](O[C@H]2O[C@H](CN)[C@@H](O)[C@H](O)[C@H]2O)[C@H](O)[C@H]1O[C@H]1O[C@H](CO)[C@@H](O)[C@H](N)[C@H]1O	broth dilution	-	-	-	IWGMT49	8 µg/mL
O=C(Oc1ccc(Cl)cc1C(=O)Nc1ccc(Br)cc1)c1ccccc1	broth dilution	-	14 d	-	330/88	4 µM
N/C(=N\N=C\c1ccccc1)SCc1cccc(Cl)c1	broth dilution	-	21 d	-	ATCC 25291	62.5 µM
COc1ccccc1/C=C/C1=NN(C(=N)N)C(c2ccccc2OC)C1	resazurin	-	-	-	-	1.78 µM
CCCCCCOc1ccccc1NC(=O)OCCN1CCCCCC1	-	-	-	-	MY330/88	16 µM
O=C(Oc1cc(Cl)ccc1C(=O)Nc1cccc(Cl)c1)c1ccccc1	broth dilution	-	14 d	-	330/88	8 µM